Anti-infective test results gathered from many reports (values: NIAID ChemDB through PubChem).

Common to all: whole-cell or culture tests; organism: Candida albicans; measure: zone

Blank or dashed fields: not listed here.

smiles | strain | read by | tested at | value
CSC1=NC(c2ccccc2O)C(C#N)=C(N)N1 | MTCC 227 | agar diffusion | 100 µg/mL | 19 mm
COc1ccc(C2c3ccc4ccccc4c3Oc3nc(-c4cc5ccccc5oc4=O)[nH]c(=O)c32)cc1 |  | agar diffusion / agar | 150 µg/mL | 16 mm
O=C(CC1SC(=O)NC1=O)Nc1ccccc1C(=O)O |  |  | 20000 µg/mL | 9 mm
CS(=O)(=O)c1nc(N)c(C#N)c(/C=C\c2ccccc2)n1 | MTCC 227 | agar diffusion | 25 µg/mL | 17 mm
O=C(c1cn2cnnc2nn1)c1nn(-c2ccccc2)cc1-c1ccc([N+](=O)[O-])cc1 |  | agar diffusion / agar | 2.5 mg/mL | 6 mm
CS(=O)(=O)c1nc(N)c(C#N)c(-c2ccc(Cl)cc2)n1 | MTCC 227 | agar diffusion | 25 µg/mL | 17 mm
CCC(C)CCCCCCCCCCC(=O)N[C@H]1C[C@@H](O)[C@@H](SCC(=O)OC)NC(=O)C2[C@@H](O)[C@@H](C)CN2C(=O)C(CO)NC(=O)C([C@H](O)C(O)c2ccc(O)cc2)NC(=O)NC(=O)[C@@H]2C[C@@H](O)CN2C(=O)[C@H]([C@@H](C)O)NC1=O | IV | agar | 2 mg/mL | 22 mm
COc1ccc(C2c3ccc4ccccc4c3Oc3nc(-c4cc5ccccc5oc4=O)[nH]c(=O)c32)cc1OC |  | agar diffusion / agar | 100 µg/mL | 14 mm
O=c1oc2ccccc2cc1-c1nnc(/N=C/c2ccccc2O)o1 | ATCC 10231 | agar diffusion | 100 µg/mL | 10 mm
Clc1ccc(C2=NN(c3ccccc3)C(c3cn(-c4ccccc4)nc3-c3ccccc3)C2)c(Cl)c1 | MTCC 227 |  | 500 µg/mL | 0 mm
COc1ccc(C2N=C(SC)NC(N)=C2C#N)cc1 | MTCC 227 | agar diffusion | 50 µg/mL | 18 mm
CCC(C)CCCCCCCCCCC(=O)N[C@H]1C[C@@H](O)[C@@H](Sc2ccccc2)NC(=O)C2[C@@H](O)[C@@H](C)CN2C(=O)C(CO)NC(=O)C([C@H](O)C(Sc2ccccc2)c2ccc(O)cc2)NC(=O)NC(=O)[C@@H]2C[C@@H](O)CN2C(=O)[C@H]([C@@H](C)O)NC1=O | IV | agar | 5 mg/mL | 18 mm
CC(=O)N1CCN(c2ccc(OC[C@H]3CO[C@](Cn4ccnc4)(c4ccc(Cl)cc4Cl)O3)cc2)CC1 | C-3 | agar diffusion | 20 mg/mL | 12 mm
CCC(C)CCCCCCCCCCC(=O)N[C@H]1C[C@@H](O)[C@@H](NCCN2CCOCC2)NC(=O)C2[C@@H](O)[C@@H](C)CN2C(=O)C(CO)NC(=O)C([C@H](O)C(NCCN2CCOCC2)c2ccc(O)cc2)NC(=O)NC(=O)[C@@H]2C[C@@H](O)CN2C(=O)[C@H]([C@@H](C)O)NC1=O | IV | agar | 5 mg/mL | 19 mm
COc1ccc(/C=C/c2nc3ccc([N+](=O)[O-])cc3[nH]2)c(OC)c1OC |  |  | 25 µg/mL | 11.04 mm
CSC1=NC(c2cccc3cc4ccccc4cc23)C(C#N)=C(N)N1 | MTCC 227 | agar diffusion | 50 µg/mL | 17 mm
CCC(C)CCCCCCCCCCC(=O)N[C@H]1C[C@@H](O)[C@@H](N=[N+]=[N-])NC(=O)C2[C@@H](O)[C@@H](C)CN2C(=O)C(CO)NC(=O)C([C@H](O)C(N=[N+]=[N-])c2ccc(O)cc2)NC(=O)NC(=O)[C@@H]2C[C@@H](O)CN2C(=O)[C@H]([C@@H](C)O)NC1=O | IV | agar | 1 mg/mL | 15 mm
CSC1=NC(c2ccccc2[N+](=O)[O-])C(C#N)=C(N)N1 | MTCC 227 | agar diffusion | 25 µg/mL | 17 mm
C[C@H]1[C@H](O)[C@@H](C)/C=C/C=C/C=C/C=C/C=C/C=C/C=C/[C@H](O[C@@H]2O[C@H](C)[C@@H](O)[C@H](N)[C@@H]2O)C[C@@H]2O[C@](O)(C[C@@H](O)C[C@@H](O)CC[C@H](O)[C@@H](O)C[C@@H](O)CC(=O)O[C@H]1C)C[C@H](O)[C@H]2C(=O)O |  | agar diffusion / agar | 150 µg/mL | 23.5 mm
O=c1[nH]c(O)c(/C=C2\C=NN=C2c2ccccc2O)s1 | fungal strain | agar diffusion / agar | 100 µg/mL | 7 mm
CC1(C)CC(=O)c2cc(-c3nnc4n3-c3nc5ccccc5nc3NN4)[nH]c2C1 | ATCC 2091 |  | 1000 µg/mL | 21 mm
O=c1oc2ccccc2cc1-c1nnc(/N=C/c2ccccc2F)o1 | ATCC 10231 | agar diffusion | 100 µg/mL | 13 mm
CCOC(=O)c1ccc(-c2nn(-c3ccccc3)cc2-c2ccc([N+](=O)[O-])cc2)nc1C |  | agar diffusion / agar | 2.5 mg/mL | 9 mm
C/C=C/C1=CC2=CC(=O)[C@](C)(OC(=O)c3c(OC)cc(O)c(O)c3C)C(=O)C2=CO1 | ATCC 64548 | agar diffusion | 50 µg/disc | 0 mm
O=c1oc2ccccc2cc1-c1nnc(/N=C/c2ccccc2Cl)o1 | ATCC 10231 | agar diffusion | 100 µg/mL | 13 mm
Cc1ccc(S(=O)(=O)CNc2oc3[nH]c(=O)[nH]c(=O)c3c2-c2ccc(Cl)cc2)cc1 |  | agar diffusion / agar | 100 µg/mL | 0 mm
O=c1[nH]c(-c2cc3ccccc3oc2=O)nc2c1C(c1ccccc1)c1ccc3ccccc3c1O2 |  | agar diffusion / agar | 100 µg/mL | 14 mm
CCOC(=O)C1=NN(c2ccccc2)C2=Nc3nccc(-c4nn(-c5ccccc5)cc4-c4ccc([N+](=O)[O-])cc4)c3C(=O)C12 |  | agar diffusion / agar | 2.5 mg/mL | 6 mm
Cc1ccc(S(=O)(=O)CNc2oc3[nH]c(=O)[nH]c(=O)c3c2-c2ccc([N+](=O)[O-])cc2)cc1 |  | agar diffusion / agar | 50 µg/mL | 0 mm
Clc1ccccc1C(c1ccccc1)(c1ccccc1)n1ccnc1 | ATCC 2091 |  | 1000 µg/mL | 40 mm
CSc1ccc(C2=NN(c3ccccc3)C(c3cn(-c4ccccc4)nc3-c3ccc(Br)cc3)C2)cc1 | MTCC 227 |  | 500 µg/mL | 2 mm
OC(Cn1cncn1)(Cn1cncn1)c1ccc(F)cc1F |  |  | 25 µg/mL | 13.38 mm
O=c1oc2ccccc2cc1-c1nnc(/N=C/c2ccc(F)cc2)o1 | ATCC 10231 | agar diffusion | 100 µg/mL | 10 mm
COc1ccc(/C=C/c2nc3ccc(Cl)cc3[nH]2)c(OC)c1OC |  |  | 25 µg/mL | 12.46 mm
Brc1ccc(-c2nn(-c3ccccc3)cc2C2CC(c3ccc(-c4ccccc4)cc3)=NN2c2ccccc2)cc1 | MTCC 227 |  | 1000 µg/mL | 5 mm
CCC(C)CCCCCCCCCCC(=O)N[C@H]1C[C@@H](O)[C@@H](O)NC(=O)C2[C@@H](O)[C@@H](C)CN2C(=O)C(CO)NC(=O)C([C@H](O)C(O)c2ccc(O)cc2)NC(=O)NC(=O)[C@@H]2C[C@@H](O)CN2C(=O)[C@H]([C@@H](C)O)NC1=O | IV | agar | 0.01 mg/mL | 24 mm
O=C(Cc1nnc2n1-c1nc3ccccc3nc1NN2)NNC(=S)Nc1ccccc1 | ATCC 2091 |  | 1000 µg/mL | 34 mm
NC1N=C/C(=C\c2sc(=O)[nH]c2O)C(c2ccccc2O)=N1 | fungal strain | agar diffusion / agar | 100 µg/mL | 9 mm
Cc1ccc(-n2cc(-c3ccc([N+](=O)[O-])cc3)c(-c3ccnc4nncn34)n2)cc1 |  | agar diffusion / agar | 5 mg/mL | 10 mm
O=C1NC(=O)C(Cc2nc3ccccc3c(=O)o2)S1 |  |  | 20000 µg/mL | 11 mm
COc1ccc(-c2nn(-c3ccccc3)cc2C2CC(c3ccc(Cl)cc3Cl)=NN2c2ccccc2)cc1 | MTCC 227 |  | 1000 µg/mL | 0 mm
CSC1=NC(c2ccc(O)cc2)C(C#N)=C(N)N1 | MTCC 227 | agar diffusion | 100 µg/mL | 20 mm
CC1(C)CC(=O)c2cc(/C=C/C(=O)c3ccc(Br)cc3)[nH]c2C1 | ATCC 2091 |  | 1000 µg/mL | 21 mm
Cc1ccc(-c2c(NCS(=O)(=O)c3ccc(C)cc3)oc3[nH]c(=O)[nH]c(=O)c23)cc1 |  | agar diffusion / agar | 50 µg/mL | 0 mm
CSc1ccc(C2=NN(c3ccccc3)C(c3cn(-c4ccccc4)nc3-c3ccccc3)C2)cc1 | MTCC 227 |  | 500 µg/mL | 0 mm
NS(=O)(=O)c1ccc(C2C=C(c3ccc(Br)cc3)C(Br)C2c2ccccc2)cc1 | ATCC 2091 |  | 1000 µg/mL | 27 mm
Cc1nn2c(nc1=O)SC(c1ccccc1O)=C(/C=C1\SC(=O)NC1=O)C=N2 | fungal strain | agar diffusion / agar | 100 µg/mL | 10 mm
CCC(C)CCCCCCCCCCC(=O)N[C@H]1C[C@@H](O)[C@@H](SCC(=O)OC)NC(=O)C2[C@@H](O)[C@@H](C)CN2C(=O)C(CO)NC(=O)C([C@H](O)C(SCC(=O)OC)c2ccc(O)cc2)NC(=O)NC(=O)[C@@H]2C[C@@H](O)CN2C(=O)[C@H]([C@@H](C)O)NC1=O | IV | agar | 5 mg/mL | 19 mm
CC1(C)CC(=O)c2cc(/C=C/C(=O)c3ccc(Cl)cc3)[nH]c2C1 | ATCC 2091 |  | 1000 µg/mL | 24 mm
O=C1NC(=O)/C(=C/c2cnoc2-c2ccccc2O)S1 | fungal strain | agar diffusion / agar | 100 µg/mL | 8 mm
O=C1NC(=O)C(Cc2nc3ccccc3[nH]2)S1 |  |  | 20000 µg/mL | <7 mm
CS(=O)(=O)c1nc(N)c(C#N)c(-c2ccccc2[N+](=O)[O-])n1 | MTCC 227 | agar diffusion | 100 µg/mL | 20 mm
CC(=O)n1ncc(/C=C2\SC(=O)NC2=O)c1-c1ccccc1O | fungal strain | agar diffusion / agar | 100 µg/mL | 8 mm

Again, the opening 5 rows:

smiles,strain,read by,tested at,value
CSC1=NC(c2ccccc2O)C(C#N)=C(N)N1,MTCC 227,agar diffusion,100 µg/mL,19 mm
COc1ccc(C2c3ccc4ccccc4c3Oc3nc(-c4cc5ccccc5oc4=O)[nH]c(=O)c32)cc1,,agar diffusion / agar,150 µg/mL,16 mm
O=C(CC1SC(=O)NC1=O)Nc1ccccc1C(=O)O,,,20000 µg/mL,9 mm
CS(=O)(=O)c1nc(N)c(C#N)c(/C=C\c2ccccc2)n1,MTCC 227,agar diffusion,25 µg/mL,17 mm
O=C(c1cn2cnnc2nn1)c1nn(-c2ccccc2)cc1-c1ccc([N+](=O)[O-])cc1,,agar diffusion / agar,2.5 mg/mL,6 mm

Rows are shuffled and stem from different studies. Zone: diameter of growth inhibition.